Changes are numbered by the printed parent chain.
B1: 4995_E20 (PGT-142) (antibody, V domains shown)
VH: QVQLVQSGPEVKKPGSSVKVSCKASGNTFSKYDVHWVRQATGQGLEWVGWISHERDKTESAQRFKGRVTFTRDTSATTAYMELRGLTSDDTAIYYCTRGSKHRLRDYVLYDDYGLINYQEWNDYLEFLDVWGHGTAVTVSS
VL: DTVVTQSPLSLPVTPGEAASMSCSSTQSLRHSNGANYLAWYQHKPGQSPRLLIRLGSQRASGVPDRFSGSGSGTHFTLKISRVEAEDAAIYYCMQGLNRPWTFGKGTKLEIK
B2: 4970_K22 (PGT-144) (antibody, V domains shown)
VH: B1 VH with P9A, S30R, I51M, R55G, T69S, T74N, T77S, M81I, R98G, Y118Q
VL: B1 VL with P12S, S24T, E86D
B3: 4980_N08 (PGT-143) (antibody, V domains shown)
VH: B1 VH with V5E, P9A, I51M, R55G, T77S
VL: B1 VL with S24T, A85P

Assays:
Assay in all cases: cell-based or functional assay
[1] = molecular target: HIV-1 Env of all viruses (n=162) of the cross-clade 162-pseudovirus panel
[2] = molecular target: HIV-1 Env of the clade B viruses (n=31) of the cross-clade 162-pseudovirus panel
[3] = molecular target: HIV-1 Env of the clade F pseudoviruses of the cross-clade 162-pseudovirus panel (n = 15)
[4] = molecular target: HIV-1 Env of the clade D viruses (n=25) of the cross-clade 162-pseudovirus panel
[5] = molecular target: HIV-1 Env of the clade A viruses (n=26) of the cross-clade 162-pseudovirus panel
[6] = molecular target: HIV-1 Env of the clade AE viruses (n=10) of the cross-clade 162-pseudovirus panel
[7] = molecular target: HIV-1 Env of the clade AG viruses (n=10) of the cross-clade 162-pseudovirus panel
[8] = molecular target: HIV-1 Env of the clade F viruses (n=15) of the cross-clade 162-pseudovirus panel
[9] = molecular target: HIV-1 Env of the clade G pseudoviruses of the cross-clade 162-pseudovirus panel (n = 15)
[10] = molecular target: HIV-1 Env of the clade C pseudoviruses of the cross-clade 162-pseudovirus panel (n = 27)
[11] = molecular target: HIV-1 Env of the clade C viruses (n=27) of the cross-clade 162-pseudovirus panel
[12] = molecular target: HIV-1 Env of the clade G viruses (n=15) of the cross-clade 162-pseudovirus panel
[13] = molecular target: HIV-1 Env of the clade AG pseudoviruses of the cross-clade 162-pseudovirus panel (n = 10)
[14] = molecular target: HIV-1 Env of the clade D pseudoviruses of the cross-clade 162-pseudovirus panel (n = 25)
[15] = molecular target: HIV-1 Env of the 162-pseudovirus panel representing all major circulating HIV-1 subtypes (HIV-1)
[16] = molecular target: HIV-1 Env of the clade AE pseudoviruses of the cross-clade 162-pseudovirus panel (n = 10)
[17] = molecular target: HIV-1 Env of all pseudoviruses of the cross-clade 162-pseudovirus panel (n = 162)

Binder | Median IC50 (µg/ml) against viruses neutralized with an IC50 <50 µg/ml [1] | Median IC50 (µg/ml) against all viruses [2] | Median IC50 (µg/ml) against viruses neutralized with an IC50 <50 µg/ml [2] | Percent viruses neutralized with an IC50 <50 µg/ml [2] | Median IC50 (µg/ml) against all viruses [3] | Median IC50 (µg/ml) against all viruses [4] | Median IC50 (µg/ml) against viruses neutralized with an IC50 <50 µg/ml [4] | Percent viruses neutralized with an IC50 <50 µg/ml [4] | Median IC50 (µg/ml) against all viruses [5] | Median IC50 (µg/ml) against viruses neutralized with an IC50 <50 µg/ml [5] | Percent viruses neutralized with an IC50 <50 µg/ml [5] | Median IC50 (µg/ml) against viruses neutralized with an IC50 <50 µg/ml [6] | Percent viruses neutralized with an IC50 <50 µg/ml [6] | Median IC50 (µg/ml) against viruses neutralized with an IC50 <50 µg/ml [7] | Percent viruses neutralized with an IC50 <50 µg/ml [7] | Median IC50 (µg/ml) against all viruses [8] | Median IC50 (µg/ml) against viruses neutralized with an IC50 <50 µg/ml [8] | Percent viruses neutralized with an IC50 <50 µg/ml [8] | Median IC50 (µg/ml) against all viruses [9] | Median IC50 (µg/ml) against all viruses [10] | further results
B1 | 0.21 µg/mL | 15.2 µg/mL | 0.4 µg/mL | 52% | 34.5 µg/mL | 50 µg/mL | 0.19 µg/mL | 28% | 2.21 µg/mL | 0.25 µg/mL | 69% | 0.01 µg/mL | 40% | 2.16 µg/mL | 60% | 0.82 µg/mL | 0.22 µg/mL | 67% | > 50 µg/mL | 43.1 µg/mL | Percent viruses neutralized with an IC50 <50 µg/ml [1]: 57%; Median IC50 (µg/ml) against all viruses [11]: 0.79 µg/mL; Median IC50 (µg/ml) against viruses neutralized with an IC50 <50 µg/ml [11]: 0.09 µg/mL; Percent viruses neutralized with an IC50 <50 µg/ml [11]: 70%; Median IC50 (µg/ml) against viruses neutralized with an IC50 <50 µg/ml [12]: 0.21 µg/mL; Percent viruses neutralized with an IC50 <50 µg/ml [12]: 67%; Median IC50 (µg/ml) against all viruses [13]: > 50 µg/mL; Median IC50 (µg/ml) against all viruses [14]: > 50 µg/mL; Median IC50 (µg/ml) against viruses neutralized with an IC50 <50 µg/ml [15]: 0.21 µg/mL; Percent viruses neutralized, IC50 < 0.1 µg/ml [15]: 23%; Percent viruses neutralized, IC50 < 1 µg/ml [15]: 40%; Percent viruses neutralized, IC50 < 50 µg/ml [15]: 57%; Median IC50 (µg/ml) against all viruses [16]: > 50 µg/mL; Median IC50 (µg/ml) against all viruses [17]: > 50 µg/mL
B2 | 2.06 µg/mL | 50 µg/mL | 3.37 µg/mL | 39% | > 50 µg/mL | 50 µg/mL | 2.13 µg/mL | 16% | 50 µg/mL | 2.81 µg/mL | 46% | 0.1 µg/mL | 30% | 18 µg/mL | 20% | 29.6 µg/mL | 0.51 µg/mL | 33% | > 50 µg/mL | > 50 µg/mL | Percent viruses neutralized with an IC50 <50 µg/ml [1]: 38%; Median IC50 (µg/ml) against all viruses [11]: 48.9 µg/mL; Median IC50 (µg/ml) against viruses neutralized with an IC50 <50 µg/ml [11]: 0.85 µg/mL; Percent viruses neutralized with an IC50 <50 µg/ml [11]: 52%; Median IC50 (µg/ml) against viruses neutralized with an IC50 <50 µg/ml [12]: 3.84 µg/mL; Percent viruses neutralized with an IC50 <50 µg/ml [12]: 33%; Median IC50 (µg/ml) against all viruses [13]: > 50 µg/mL; Median IC50 (µg/ml) against all viruses [14]: > 50 µg/mL; Median IC50 (µg/ml) against viruses neutralized with an IC50 <50 µg/ml [15]: 2.06 µg/mL; Percent viruses neutralized, IC50 < 0.1 µg/ml [15]: 3%; Percent viruses neutralized, IC50 < 1 µg/ml [15]: 16%; Percent viruses neutralized, IC50 < 50 µg/ml [15]: 38%; Median IC50 (µg/ml) against all viruses [16]: > 50 µg/mL; Median IC50 (µg/ml) against all viruses [17]: > 50 µg/mL
B3 | 0.31 µg/mL | 25.9 µg/mL | 0.39 µg/mL | 52% | > 50 µg/mL | 50 µg/mL | 0.28 µg/mL | 28% | 6.34 µg/mL | 0.27 µg/mL | 65% | 0.02 µg/mL | 40% | 1.11 µg/mL | 50% | 0.98 µg/mL | 0.36 µg/mL | 67% | > 50 µg/mL | > 50 µg/mL | Median IC50 (µg/ml) against all viruses [11]: 0.8 µg/mL; Median IC50 (µg/ml) against viruses neutralized with an IC50 <50 µg/ml [11]: 0.17 µg/mL; Percent viruses neutralized with an IC50 <50 µg/ml [11]: 70%; Median IC50 (µg/ml) against viruses neutralized with an IC50 <50 µg/ml [12]: 0.21 µg/mL; Percent viruses neutralized with an IC50 <50 µg/ml [12]: 67%; Median IC50 (µg/ml) against all viruses [13]: > 50 µg/mL; Median IC50 (µg/ml) against all viruses [14]: > 50 µg/mL; Median IC50 (µg/ml) against viruses neutralized with an IC50 <50 µg/ml [15]: 0.31 µg/mL; Percent viruses neutralized, IC50 < 0.1 µg/ml [15]: 17%; Percent viruses neutralized, IC50 < 1 µg/ml [15]: 37%; Percent viruses neutralized, IC50 < 50 µg/ml [15]: 56%; Median IC50 (µg/ml) against all viruses [16]: > 50 µg/mL; Median IC50 (µg/ml) against all viruses [17]: > 50 µg/mL

Source: US20160264649A1
